The target in this experiment is SARS-CoV-2 RBD (RBD-2) (SARS-CoV-2).

We go through 1 substance from US20230357364A1.

The term IC50 denotes the concentration that inhibits the measured activity by half. A high value points to lower potency. Consider “ACE2 (soluble, SPR competition) (from UniProt Q9BYF1 18-740) (receptor)”, for which the concentration for half-maximal inhibition (IC50) was 0.12 µM.
